Measured values from several laboratories, pooled; numbers as filed in NIAID ChemDB.

Shared fields: tests in culture; organism: HIV-1; cells: MT-4; measure: EC50

Lines come from different laboratories, so protocols vary.

Oc1cc(O)cc(-c2cc3ccc(O)cc3o2)c1 ; strain: IIIB ; read by: MTT ; value: 7 µg/mL
c1ccc(CNCc2ccc(CN3CCCNCCNCCCNCC3)cc2)nc1 ; strain: NL4-3 ; read by: cytopathic effect / MTS ; value: 0.0061 µM
c1cc(CN2CCCNCCNCCCNCC2)ccc1CN1CCCNCCNCCCNCC1 ; strain: NL4-3 ; changes: AMD3100-resistant ; read by: cytopathic effect / MTT ; value: 0.1 µg/mL
Nc1ccn([C@H]2CC[C@@H](CO)O2)c(=O)n1 ; strain: DI-06.92 (HXB2 RT-K70R) ; changes: RT-K70R ; read by: cytopathic effect ; value: 1.4 µM
Cc1c(O)cccc1C(=O)N[C@@H](CSc1ccccc1)[C@H](O)CN1C[C@H]2CCCC[C@H]2C[C@H]1C(=O)NC(C)(C)C ; strain: NL4-3 ; changes: PR-M46I V82T I84V 10R 63P ; read by: cytopathic effect / MTT ; value: 0.057 µM
CC(C)=CCc1c(O)cc(O)c2c(=O)c(OC3O[C@@H](C)[C@H](O)[C@@H](O)[C@H]3O[C@@H]3O[C@H](CO)[C@@H](O)[C@H](O)[C@H]3O)c(-c3ccc(O)cc3)oc12 ; strain: IIIB ; read by: cytopathic effect / MTT ; value: >500 µg/mL
Cc1cn([C@H]2C[C@H](N=[N+]=[N-])[C@@H](CO)O2)c(=O)[nH]c1=O ; strain: RES056 ; read by: MTT ; value: 0.0111 µM
Cc1cn([C@H]2C[C@H](N=[N+]=[N-])[C@@H](COC(=O)N3CCNCC3)O2)c(=O)[nH]c1=O ; strain: 899A ; read by: p24 / antigen / absorbance ; value: 20 µM
Cc1cc(C#Cc2ccccc2)cc(C)c1Oc1ccnc(NC2CCN(Cc3ccc(S(N)(=O)=O)cc3)CC2)n1 ; strain: IIIB ; changes: E138K ; read by: MTT ; value: 0.037 µM
Cc1cn([C@H]2C[C@H](N=[N+]=[N-])[C@@H](CO)O2)c(=O)[nH]c1=O ; strain: NL4-3 ; changes: AMD3100-resistant ; read by: cytopathic effect / MTS ; value: 0.0052 µM
COc1cc2c(c(O)c1CC=C(C)C)C(=O)C(c1ccc(O)cc1O)CO2 ; strain: IIIB ; read by: MTT ; value: >20 µg/mL
CC(C)Nc1cccnc1N1CCN(C(=O)c2cc3cc(NS(C)(=O)=O)ccc3[nH]2)CC1 ; strain: BI-12.96 (HXB2(RT-A62V S68G T69D V75I F77L F116Y Q151M)) ; changes: RT-A62V S68G T69D V75I F77L F116Y Q151M ; read by: cytopathic effect ; value: 0.1 µM
Cc1cc(C#Cc2cccc(N)c2)cc(C)c1Oc1ccnc(NC2CCN(Cc3ccc(C(N)=O)cc3)CC2)n1 ; strain: IIIB ; changes: E138K ; read by: MTT ; value: 0.029 µM
CC(C)=CCc1c(O)ccc([C@@H]2COc3c(ccc4c3C=CC(C)(C)O4)C2)c1O ; strain: IIIB ; read by: MTT ; value: >100 µg/mL
Cc1cccc(C)c1Oc1ccnc(Nc2ccc(C#N)cc2)n1 ; strain: IIIB ; changes: F227L + V106A ; read by: MTT ; value: ≥1.37 µM
CC(C)CN(C[C@@H](O)[C@H](Cc1ccccc1)NC(=O)O[C@H]1CCOC1)S(=O)(=O)c1ccc(N)cc1 ; strain: RF2802 (PR-V82F I84V) ; changes: PR-V82F I84V ; read by: cytopathic effect / MTT ; value: 0.115 µM
COc1cc(O)ccc1C(=O)CC(=O)c1ccc(O)cc1 ; strain: IIIB ; read by: cytopathic effect / MTT ; value: >20 µg/mL
O=C(Cc1ccc(CC(=O)NCCCN2CCCC2)cc1)NCCCN1CCCC1 ; read by: MTT ; value: >156 µM
Cc1cc(C#Cc2ccc(N)cc2)cc(C)c1Oc1ccnc(Nc2ccc(C#N)cc2)n1 ; strain: IIIB ; changes: L100I ; read by: MTT ; value: 0.259 µM
Cc1cn([C@H]2C[C@H](N=[N+]=[N-])[C@@H](COC(=O)N3CCOCC3)O2)c(=O)[nH]c1=O ; strain: 899A ; read by: p24 / antigen / absorbance ; value: 35 µM
COc1c(-c2ccc(O)cc2)oc2cc(O)c(CC=C(C)C)c(O)c2c1=O ; strain: IIIB ; read by: cytopathic effect / MTT ; value: >8 µg/mL
Cc1cc(C#N)cc(C)c1Oc1nc(NC2CCC(NCc3ccc(Br)cc3)CC2)nc2ccsc12 ; strain: IIIB ; changes: NNRTI-resistant (RT Y188L) ; read by: MTT ; value: >3.45 µM
c1cc(CNCCCN2CCOCC2)ccc1CNCCCN1CCOCC1 ; read by: MTT ; value: >320.1 µM
CC(C)(C)NC(=O)[C@@H]1CN(C(=O)OCc2ccccc2)CCN1C[C@@H](O)C[C@@H](Cc1ccccc1)C(=O)N[C@H]1c2ccccc2C[C@H]1O ; strain: IIIB ; read by: p24 ; value: <0.1 µM
Cc1cc(C#N)cc(C)c1Oc1nc(Nc2ccc(C#N)cc2)nc(N)c1Br ; strain: IIIB ; changes: NNRTI-resistant (RT Y188L) ; read by: MTT ; value: 0.0205 µM
Cc1cn([C@H]2C[C@H](N=[N+]=[N-])[C@@H](CO)O2)c(=O)[nH]c1=O ; strain: 899A ; read by: p24 / antigen / absorbance ; value: 0.037 µM
Cc1cc(C#Cc2ccccc2)cc(C)c1Oc1ccnc(Nc2ccc(C#N)cc2)n1 ; strain: IIIB ; changes: Y188L ; read by: MTT ; value: 1.513 µM
CC(C)(C)NC(=O)[C@@H]1C[C@@H]2CCCC[C@@H]2CN1C[C@@H](O)C[C@@H](Cc1ccccc1)C(=O)N[C@H]1c2ccccc2C[C@H]1O ; strain: IIIB ; read by: p24 ; value: <0.4 µM
C[C@@H]1O[C@@H](Oc2c(-c3ccc(O)cc3)oc3c4c(cc(O)c3c2=O)OC(C)(C)C=C4)[C@H](O)[C@H](O)[C@H]1O ; strain: IIIB ; read by: cytopathic effect / MTT ; value: >500 µg/mL
c1cc(CCNCCN2CCCC2)ccc1CCNCCN1CCCC1 ; read by: MTT ; value: 1.42 µM
CO[P@](=O)(c1cc(C)cc(/C=C/C#N)c1)c1c(C(N)=O)[nH]c2ccc(Cl)c(F)c12 ; strain: NL4-3 ; changes: Y181C ; read by: ELISA ; value: 0.0039 µM
O=C(/C=C/c1ccc(OC2OC(CO)C(O)C(O)C2OC2OCC(O)(CO)C2O)cc1)c1ccc(O)cc1O ; strain: IIIB ; read by: cytopathic effect / MTT ; value: >100 µg/mL
Cc1cc(C#Cc2cccc(N)c2)cc(C)c1Oc1ccnc(NC2CCN(Cc3cccc(C(N)=O)c3)CC2)n1 ; strain: IIIB ; changes: RES056 ; read by: MTT ; value: >0.63 µM
CN1CCN(CCCNC(=O)Cc2ccc(CC(=O)NCCCN3CCN(C)CC3)cc2)CC1 ; read by: MTT ; value: >264 µM
Cc1cn([C@H]2C[C@H](N=[N+]=[N-])[C@@H](CO)O2)c(=O)[nH]c1=O ; strain: NI-10.93 (HXB2 RT T69N K70R Q151M) ; changes: RT-T69N K70R Q151M ; read by: cytopathic effect ; value: 0.628 µM
CC(=O)Nc1cccc(C#Cc2cc(C)c(Oc3ccnc(Nc4ccc(C#N)cc4)n3)c(C)c2)c1 ; strain: IIIB ; changes: Y181C ; read by: MTT ; value: 0.15 µM
CCOC(=O)C1CN(Cc2ccc(S(N)(=O)=O)cc2)CCC1Nc1nc(Oc2c(C)cc(C#N)cc2C)c2sccc2n1 ; strain: IIIB ; changes: NNRTI-resistant (RT E138K) ; read by: MTT ; value: 0.607 µM
Cc1cc(C#Cc2ccc(C(=O)O)cc2)cc(C)c1Oc1ccnc(Nc2ccc(C#N)cc2)n1 ; strain: IIIB ; changes: RES056 ; read by: MTT ; value: 1.494 µM
C/C(=C\Cc1c(O)cc(O)c2c(=O)c(-c3ccc(O)cc3)coc12)CO ; strain: IIIB ; read by: MTT ; value: >20 µg/mL
Cc1cc(C#CC2CC2)cc(C)c1Oc1ccnc(Nc2ccc(C#N)cc2)n1 ; strain: IIIB ; changes: Y181C ; read by: MTT ; value: 0.09 µM
CC(C)(C)NC(=O)[C@@H]1CN(CCOCc2ccccc2)CCN1C[C@@H](O)C[C@@H](Cc1ccccc1)C(=O)N[C@H]1c2ccccc2C[C@H]1O ; strain: IIIB ; read by: p24 ; value: <0.1 µM

Repeating the first 6 entries:

SMILES | strain | changes | read by | value
Oc1cc(O)cc(-c2cc3ccc(O)cc3o2)c1 | IIIB | - | MTT | 7 µg/mL
c1ccc(CNCc2ccc(CN3CCCNCCNCCCNCC3)cc2)nc1 | NL4-3 | - | cytopathic effect / MTS | 0.0061 µM
c1cc(CN2CCCNCCNCCCNCC2)ccc1CN1CCCNCCNCCCNCC1 | NL4-3 | AMD3100-resistant | cytopathic effect / MTT | 0.1 µg/mL
Nc1ccn([C@H]2CC[C@@H](CO)O2)c(=O)n1 | DI-06.92 (HXB2 RT-K70R) | RT-K70R | cytopathic effect | 1.4 µM
Cc1c(O)cccc1C(=O)N[C@@H](CSc1ccccc1)[C@H](O)CN1C[C@H]2CCCC[C@H]2C[C@H]1C(=O)NC(C)(C)C | NL4-3 | PR-M46I V82T I84V 10R 63P | cytopathic effect / MTT | 0.057 µM
CC(C)=CCc1c(O)cc(O)c2c(=O)c(OC3O[C@@H](C)[C@H](O)[C@@H](O)[C@H]3O[C@@H]3O[C@H](CO)[C@@H](O)[C@H](O)[C@H]3O)c(-c3ccc(O)cc3)oc12 | IIIB | - | cytopathic effect / MTT | >500 µg/mL

ECn: concentration that inhibits the pathogen or its effect by n%. Blank or dashed fields: not listed here.